Record: PubChem BioAssay AID504761 (Drosophila RNAi Screening Center, 2011)
Aim: 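Genome-wide fly cell screen for genes dengue virus requires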 (primary screen). Cells: D.Mel-2 cells from Drosophila. Reagents: long dsRNA against Drosophila genes. Treatment: infection with dengue virus type 2; dose and infection time not stated. Measurement: 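Cells stained for dengue envelope protein and imaged; percent of infected cells per well on duplicate plates, ranked by infection, with stained nuclei counted for cell number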. Scale: infection score: higher = more virus-infected cells. Active means: 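Low infection ranks in the two replicates (chance level up to 0.065) followed by a retest with a 1.5-fold or larger significant decrease, p below 0.05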. Calls: active = confirmed: knock-down lowers infection; inactive = not picked or not confirmed.
The screen tested about 22,000 reagents; below is an unselected part of those with a known target gene and a result. Over the whole deposit, 116 (0.52%) were called active. 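Calls depend on retest data that are not deposited; infection was ranked per plate without normalising between plates; the unit of the infection score is not given.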 Not all columns of the deposit are shown. No sequences are given here. Not given: the amount of reagent, the time to read-out.

The first 6 entries as a preview:
Target gene | DRSC id | infection score, replicate 1 | infection score, replicate 2 | call
UbcE2H | DRSC18221 | 5.25 | 4.49 | inactive
UbcE2H | DRSC27123 | 20.2 | 3.33 | inactive
CG11444 | DRSC17784 | – | 10.6 | inactive
CG11444 | DRSC24827 | 2.78 | 6.44 | inactive
alphaTry | DRSC07577 | 10.3 | 22 | inactive
Nep4 | DRSC15539 | 8.04 | 2.66 | inactive

Results, from the first entry:
Target gene | DRSC id | infection score, replicate 1 | infection score, replicate 2 | call
UbcE2H | DRSC18221 | 5.25 | 4.49 | inactive
UbcE2H | DRSC27123 | 20.2 | 3.33 | inactive
CG11444 | DRSC17784 | – | 10.6 | inactive
CG11444 | DRSC24827 | 2.78 | 6.44 | inactive
alphaTry | DRSC07577 | 10.3 | 22 | inactive
Nep4 | DRSC15539 | 8.04 | 2.66 | inactive
Mp20 | DRSC07474 | 18.1 | 7.58 | inactive
Mp20 | DRSC29793 | 4.9 | 2.2 | inactive
CG8578 | DRSC20114 | 9.4 | 3.69 | inactive
CG1575 | DRSC18069 | 23.5 | 10.7 | inactive
CG1575 | DRSC27030 | 4.29 | 16.9 | inactive
ImpE3 | DRSC16716 | 4.14 | 1.54 | inactive
Fpgs2 | DRSC00600 | 7.55 | 7.39 | inactive
Ssdp | DRSC16211 | 0.48 | 0.94 | inactive
Ssdp | DRSC27526 | 3.3 | 3.21 | inactive
CG4168 | DRSC01447 | 2.21 | 8.6 | inactive
CG4168 | DRSC01933 | 24.4 | 16.7 | inactive
CG4168 | DRSC21319 | 3.61 | 2.87 | inactive
CG4168 | DRSC22789 | 1.63 | 3.11 | inactive
CG14362 | DRSC14824 | 7.69 | 1.62 | inactive
PAN2 | DRSC07115 | 15.2 | 7.53 | inactive
Cyp313a1 | DRSC16624 | 1.89 | 9.49 | inactive
Cyp313a1 | DRSC28812 | 21.2 | 13.9 | inactive
ftz-f1 | DRSC25015 | 5.2 | 1.61 | inactive
snz | DRSC17969 | 3.53 | 3.21 | inactive
TfIIS | DRSC03455 | 32.7 | 9.93 | inactive
TfIIS | DRSC24533 | 0.53 | 1.18 | inactive
CG11893 | DRSC14429 | 2.61 | 4.73 | inactive
CG11893 | DRSC29725 | 9.49 | 3.34 | inactive
srl | DRSC12340 | 9.07 | 6.22 | inactive
srl | DRSC29561 | 15.3 | 18 | inactive
EMC5 | DRSC02469 | – | 5.47 | inactive
CG5928 | DRSC18391 | 4.54 | 8.06 | inactive
CG5928 | DRSC25853 | 1.74 | 4.52 | inactive
CG14054 | DRSC17909 | 10.6 | 8.05 | inactive
CG9121 | DRSC03142 | 2.31 | 14.7 | inactive
CG34283 | DRSC13313 | 3.9 | 1.63 | inactive
Ugt304A1 | DRSC15127 | 4.39 | 7.08 | inactive
Ugt304A1 | DRSC26693 | 1.47 | 7.36 | inactive
GNBP-like3 | DRSC06385 | 3.46 | 4.91 | inactive
CG30184 | DRSC22277 | 1.84 | 11.2 | inactive
CG30184 | DRSC29631 | 19.2 | 15.7 | inactive
CG31259 | DRSC14366 | 10.5 | 8.72 | inactive
CG31741 | DRSC02887 | 5.17 | 1.58 | inactive
Septin2 | DRSC16855 | 6.35 | 9.76 | inactive
Josd | DRSC18323 | 3.89 | 2.96 | inactive
Zpr1 | DRSC18432 | 1.45 | 4.39 | inactive
CG10298 | DRSC12522 | 2.37 | 5.82 | inactive
CG10298 | DRSC25489 | 13.4 | 9.7 | inactive
RpL31 | DRSC06716 | 2.29 | 6.74 | inactive
RpL31 | DRSC29618 | 12 | 7.4 | inactive
gig | DRSC11351 | 11.3 | 14.9 | inactive
gig | DRSC29781 | 22.4 | 10.4 | inactive
CG15207 (retired record) | DRSC22791 | 1.62 | 2 | inactive
CG15207 (retired record) | DRSC29119 | 15.6 | 1.54 | inactive
CG30095 | DRSC07175 | 13.9 | 4.61 | inactive
CG8460 | DRSC03090 | 4.31 | 6.23 | inactive
Samuel | DRSC21731 | 36.2 | 6.85 | inactive
Samuel | DRSC23114 | 1.22 | 0.27 | inactive
DhpD | DRSC12288 | 36.8 | 20.7 | inactive
CG13562 | DRSC04200 | 12.3 | 16.4 | inactive
CG13562 | DRSC28501 | 9.61 | 21.3 | inactive
CG1677 | DRSC18116 | 32.6 | 37.4 | inactive
CG14891 | DRSC15013 | 9.4 | 6.44 | inactive
tbc | DRSC20540 | 2.24 | 0.96 | inactive
tbc | DRSC23084 | 1.37 | 10.2 | inactive
tbc | DRSC29058 | 7.81 | 4.89 | inactive
Zdhhc8 | DRSC18044 | 3.27 | 3.16 | inactive
Zdhhc8 | DRSC18122 | 3.09 | 9.5 | inactive
Osi4 | DRSC12134 | 5.97 | 7.88 | inactive
Gs1l | DRSC00754 | 5.31 | 12.2 | inactive
CG7296 | DRSC03042 | 11.1 | 6.88 | inactive
CG7296 | DRSC22343 | 2.86 | 3.28 | inactive
CG7296 | DRSC25754 | 4.78 | 7.57 | inactive
